Results deposited as PubChem BioAssay AID504761 (Drosophila RNAi Screening Center, 2011).
The deposit covers about 22,000 reagents; shown is a random part of those that have a named target and a result. Over the whole deposit, 116 (0.52%) are marked active. 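Calls depend on retest data that are not deposited; infection was ranked per plate without normalising between plates; the unit of the infection score is not given.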 Unmarked entries are inactive. The numbers tell different reagents against one gene apart. Names joined by + are all predicted targets of the reagent. Not all columns of the deposit are shown. Not given: the amount of reagent, the time to read-out.

Purpose: 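Insect host genes that dengue virus relies on to spread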 (primary screen)
System: D.Mel-2 cells from Drosophila
Reagents: long dsRNA against Drosophila genes
Conditions: infection with dengue virus type 2; dose and infection time not stated
Detection: 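Per well on two replicate plates, imaging gave the percent of cells positive for viral envelope protein, ranked by infection, and a nuclear count of cells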
Direction: infection score: higher = more virus-infected cells
Rule for the call: 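Low infection ranks in the two replicates (chance level up to 0.065) followed by a retest with a 1.5-fold or larger significant decrease, p below 0.05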
Meaning of the calls: active = confirmed: knock-down lowers infection; inactive = not picked or not confirmed

no.	gene	reagent	infection score, replicate 1
1	Tao	1	16.6
2	Tao	2	8.22
3	Tao	3	4.48
4	Tao	4	6.62
5	slv (saliva)	1	3.57
6	CG16978	1	6.71
7	slou (slouch)	1	5.01
8	slou (slouch)	2	4.14
9	uncNacbeta	1	11.7
10	dsd (distracted)	1	5.37
11	dsd (distracted)	2	2.58

The list goes on, starting with the last 3 of the part before.
no.	gene	reagent	infection score, replicate 1
9	uncNacbeta	1	11.7
10	dsd (distracted)	1	5.37
11	dsd (distracted)	2	2.58
12	spn-E (spindle E)	1	4.68
13	lok (loki)	1	5.4
14	lok (loki)	2	1.2
15	Arts + Apl	1	1.33
16	Marf (Mitochondrial assembly regulatory factor)	1	13
17	Marf (Mitochondrial assembly regulatory factor)	2	18.7
18	CG13074	1	0.69
19	CG4198	1	5.11
20	CG4198	2	1.27
21	CG16826	1	2.71
22	CG5815	1	22.1
23	CG5815	2	11.5
24	CG33169	1	16.5
25	CG33169	2	11.2
26	feo (fascetto)	1	38.4
27	feo (fascetto)	2	1.43
28	Zpr1	1	1.45
29	CG11382	1	0.26
